# Measurements published in the supplement of paper PMC9931576.
# Human monoclonal antibodies against the spike receptor-binding domain (heavy:light variable regions). IC50 against pseudoviruses bearing the spike of naturally observed variants; lower = stronger; >10 µg/ml means not reached at the top dose. No active / inactive call. The stated detection limit is 0.0005 µg/ml; values near or below 0.001 µg/ml lie at the floor of the assay.
# B1: BD55-5419 (protein)
# chain 1: QVQLVESGGGVVQPGTSLRLSCAVSGFDFSNYGMHWVRQAPGKGLEWVAVTWFDGDNEYYAKSVRGRFTISRDKSRNTLYLQMNSLRAEDTAIYYCARDNCSGGTCIPAPVDYWGQGTLVTVSS
# chain 2: SYELTQPLSVSVALGQTATITCGGDNIGSYNVHWYQQKSGQAPVLVIFRDFSRPSGIPERFSGSNSGNTATLTISRAQAGDEADYYCQVWDSSTEGYVFGTGTKVTVL
# B2: BD55-5358 (protein)
# chain 1: EVQLVESGGGLVQPGGSLRLSCAASGFTFSSYDMHWVRQAPGKGLEWVSLIGGAGDTYYLGSVKGRFTISRENAKNSLYLQMSSLNAGDSAVYYCARSPTNYYGEPYGMDVWGQGTTVTVSS
# chain 2: SYELTQPPSVSVSPGQTARITCSGDVLPRQYSYWYQQKPGQAPVLIISKDSERPSGIPERFSGSTSGTKVTLTISGVQAVDEADYYCQSADSGGAVFGGGTKLTVL
# B3: BD55-1041 (protein)
# chain 1: QVQVVQSGAEVKKPGASVKVSCKASGYTFTTYSMHWVRQAPGQGLEWMGWINPNSGGTNYAQKFQGRVTMTRDTSISTAYMEMSRLRKDDTAVYYCARGVQEISAWDDYSYYYGLDVWGQGTTVTVS
# chain 2: SYELTQPPSVSVSPGQTATITCSGDAFPKQYVYWYQQKPGQAPVLVINKDTERPSGIPERFSGSTSGTTVTLTISGVQAEDEADYYCLSPDSRGSYVFGGGTKVTVL
# B4: BD55-5359 (protein)
# chain 1: EVQLVESGGGLIQPGGSLKLTCAASGFTVNSNYLTWVRQAPGKGLEWVAHIFAAGSSYYADSVKGRFTISRDNSKNTVYLQMNSLRAEDTADYYCARVRSNLITLFGVVTFESGHYQYYIDVWGKGTTVTVSS
# chain 2: QSVLTQPPSVSAAPGQGVTVSCSGTSSNIGNTGVSWYQQLPGTAPKLLIYDNEKRPSGIPDRFSASKSGTSATLGITGVQAGDEADYYCGTWDSSLSLYVFGTGTKVTVL
# B5: BD55-5386 (protein)
# chain 1: QVQLLQSGAEVKKPGSSVTVSCKASGGTFTNSAINWVRQAPGQGLEWIGGIIPIIGPTSYAQKFQGRVTITADESSTTAYLDLRSLRSDDTAVYYCAKAHCGDCTPPRGYYFYYFGMDVWGQGTTVTVSS
# chain 2: SYELTQPPSVSVSPGQTARITCSGDALPKQYSYWYQQRPGQAPVLLIYKDNERPSGIPERFSGSSSGTTVTLTISGVQAEDEADYYCQSADASSTYVVFGGGTKLTVL
# B6: BD55-5406 (protein)
# chain 1: QITLKESGPTLVKPTQTLTLTCTFSGFSLSTGAVGVGWIRQPPGKALEWLALIYWDGDERYSPSLKNRLTITKDTSKNQVVLTMTNMDPVDTATYFCARSGSAYYDILTGYFRPGISDYWGQGTLVTVSS
# chain 2: IVMTQTPLSLPVTPGEPASISCRSSQSLLDSDDGNTYLDWYLQKPGQSPQLLIYTLSYRASGVPDRFSGSGSGTDFTLKISRVEAEDVGVYYCMQRIEFPGTFGQGTKLEIK
# B7: BD55-5415 (protein)
# chain 1: EVQLVESGGGLVKPGGSLRLSCAASAFTFSTDSMSWVRQAPGKGLAWVSSISGTSSYINYADSVKGRFTISRDNAKNSLFLQMNSLRVEDTAVYYCARDPGYDFSSGYYTAIDSWGQGTLVIVSS
# chain 2: QPVLTQSSSASASLGSSVKLTCTLSGGHTSSIIAWHQQQPGKAPRYLMMLGGSATYNKGSGLPDRFSGSTSGAARHLTISSLQSEDEAIYYCETWDNNSRIFGGGTKLTVL
# B8: BD55-5365 (protein)
# chain 1: EVQLVESGGGLVQPGRSLRLSCKTSGFIVGDHSMSWVRQAPGKGLEWVGFMRSNTLGGTTEYAASVEGRFTVSRDDSKGIAYLQMNSLKTEDTAVYYCSRMGIMVSTYLGYYYGMDVWGQGTTVTVS
# chain 2: DVQMTQSPSILSASVGDRVTITCRANESVSNWLAWYQQKPGKAPKLLIYAASNLESGAPSRFSGTGTGTEFTLTISSLQADDFATYYCQQYNGFMYTFGQGTKLEIK
# B9: BD55-5399 (protein)
# chain 1: QVQLVQSGSELKKPGASMKVSCKASGYTFTTYALKWVRQAPGQGLEWMGWINTNTGNPTYAQGFTGRFVFSLDTSVSTAYLQISSLRAEDTAVYYCARVFCDYDTCYDVDYWGQGTLVTVSS
# chain 2: QSVLTQPPSASGTPGQTVTISCSGSTSNIGSNFVYWYQQLPGTAPKVLIYRNTHRPSGVPDRFSGSKSGTSASLAISGLRSEDEADYYCAVWDDSLSGRVFGGGTKLTVL
# B10: BD55-5427 (protein)
# chain 1: QVQLQESGPGLVKPSETLSLTCTVSGGSISSHYWSWSRQPPGKGLEWIGCVNYSGSTNYNPSLKSRVRISVDTSKSQLSLKLSSVTAADTAVYYCARGGATPYSGYDYLDPYYYAMDVWGQGTTVTVSS
# chain 2: EIVMTQSPATLSVSPGERVTLSCRASQSVGNNLAWYQQKPGQAPRLLIYGASTGATGIPARFSGSGSGTDFTLTISSLQSEDFAVYYCQQYNNWPPYTFGQGTKLEIR
# B11: BD55-5379 (protein)
# chain 1: QVQLVQSGAEVKKPGASVKVSCKTSGYTFSKYDIHWLRQATGQGLEWLGWMNPNSGDADYAHSFQGRVTMTRNTSITTAYMELSSLRSEDTAVYYCAIEYGDRGYYYYYDVDVWGQGTAVTVSS
# chain 2: IQMTQSPSSLSASVGDRVTITCRASQSISSYLNWYQQKPGKAPKLLIYDMSTLLSGVPSRFSGSGSGTDFTLTITNLQPDDFATYHCQQSYSTPPTFGRGTKVEIK
# B12: BD55-1051 (protein)
# chain 1: QVQLVQSGAEVKKPGSSVKVSCKASGDTFSNYAFGWVRQAPGQGLEWMGRIIPRFDVASPTRKFQGRLTISADKSTTTVYMELSSLKSDDTAIYYCVRDVVGATSVDFWGQGTQVTVSS
# chain 2: DVVMTQSPLSLPVTLGQTASISCRSSESLVYSDGNTYLNWFQQRPGQSPRRLIYKVSNRDSGVPDRFSGSGSGTDFTLKISRVEADDVGIYFCMQGTHWPRTFGQGTKVEIK
# Target: SARS-CoV-2 Omicron BA.1 spike pseudovirus
# Experiment: pseudovirus neutralization IC50; higher = weaker neutralization
# Procedure: (§1)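 Single-round VSV luciferase pseudovirus mixed with antibody dilutions for 1 h and put on Huh-7 cells for about a day; IC50 from the dose curve.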
row,Binder,pseudovirus neutralization IC50 [µg/mL]
1,B1,> 10
2,B2,> 10
3,B3,0.935
4,B4,3.17
5,B5,0.00719
6,B6,> 10
7,B7,> 10
8,B8,> 10
9,B9,> 10
10,B10,> 10
11,B11,1.93
12,B12,> 10

# Target: SARS-CoV-2 Omicron BA.2 spike pseudovirus
# Experiment: as above
# Procedure: as §1
row,Binder,pseudovirus neutralization IC50 [µg/mL]
1,B1,> 10
2,B2,> 10
3,B3,0.588
4,B4,3.51
5,B5,0.0275
6,B6,> 10
7,B7,> 10
8,B8,> 10
9,B9,> 10
10,B10,> 10
11,B11,1.13
12,B12,> 10

# Target: SARS-CoV-2 Omicron BA.2.75 spike pseudovirus
# Experiment: as above
# Procedure: as §1
row,Binder,pseudovirus neutralization IC50 [µg/mL]
1,B1,> 10
2,B2,> 10
3,B3,1.47
4,B4,2.53
5,B5,1.74
6,B6,> 10
7,B7,> 10
8,B8,> 10
9,B9,> 10
10,B10,> 10
11,B11,1.19
12,B12,> 10

# Target: SARS-CoV-2 Omicron BA.5 spike pseudovirus
# Experiment: as above
# Procedure: as §1
row,Binder,pseudovirus neutralization IC50 [µg/mL]
1,B1,> 10
2,B2,> 10
3,B3,0.754
4,B4,5.57
5,B5,0.0977
6,B6,> 10
7,B7,> 10
8,B8,> 10
9,B9,> 10
10,B10,> 10
11,B11,1.57
12,B12,> 10

# Target: SARS-CoV-2 Omicron BQ.1.1 spike pseudovirus
# Experiment: as above
# Procedure: as §1
row,Binder,pseudovirus neutralization IC50 [µg/mL]
1,B1,> 10
2,B2,> 10
3,B3,0.443
4,B4,4.98
5,B5,> 10
6,B6,> 10
7,B7,> 10
8,B8,> 10
9,B9,> 10
10,B10,> 10
11,B11,1.07
12,B12,> 10

# Target: SARS-CoV-2 Omicron XBB spike pseudovirus
# Experiment: as above
# Procedure: as §1
row,Binder,pseudovirus neutralization IC50 [µg/mL]
1,B1,> 10
2,B2,> 10
3,B3,0.531
4,B4,3.6
5,B5,> 10
6,B6,> 10
7,B7,> 10
8,B8,> 10
9,B9,> 10
10,B10,> 10
11,B11,2.09
12,B12,> 10

# Target: SARS-CoV-2 early D614G spike pseudovirus
# Experiment: as above
# Procedure: as §1
row,Binder,pseudovirus neutralization IC50 [µg/mL]
1,B1,4.97
2,B2,0.984
3,B3,1.68
4,B4,2.28
5,B5,0.00214
6,B6,> 10
7,B7,0.0327
8,B8,0.716
9,B9,0.0018
10,B10,> 10
11,B11,0.842
12,B12,0.00139
